15 molecules from US20160304570A1, “Potent and selective inhibitors of nav1.3 and nav1.7” (published 2016) can be followed below.

The target in the first test is human voltage-gated sodium channel Nav1.5 (human), Q14524. Put plainly: cell-based or functional assay.
Regarding DCLGFYRKCIPDNDKCCRPNLVCSRTHKWCKYVF (modifications not checked) [[Tyr6]GpTx-1(1-34)], the IWQ Use Nav1.5 (µM); IC50 of peak inward current, IonWorks Quattro came to 6.38 µM.
In the case of DCLGFMRECIPDNDKCCRPNLVCSRTHKWCKYVF (modifications not checked) [[Glu8]GpTx-1(1-34)], the IWQ Use Nav1.5 (µM) (IC50, IonWorks Quattro population patch clamp) was found to be 24.9 µM.
Regarding DCLGFRRKCIPDNDKCCRPNLVCSRTHKWCKYVF (modifications not checked) [[Arg6]GpTx-1(1-34)], the IWQ Use Nav1.5 (µM); IC50 of peak inward current, IonWorks Quattro was 17.6 µM.
As to DCLGFMRKCIPDADKCCRPNLVCSRTHKWCKYVF (modifications not checked) [[Ala13]GpTx-1(1-34)], the IWQ Use Nav1.5 (µM): IC50 of peak inward current, IonWorks Quattro came to 8.15 µM.
As for DCLGFHRKCIPDNDKCCRPNLVCSRTHKWCKYVF (modifications not checked) [[His6]GpTx-1(1-34)], the IWQ Use Nav1.5 (µM); IC50 of peak inward current, IonWorks Quattro came out at 10.1 µM.
Still for that read-out and setting: the result for DCLGFARKCIPDNDKCCRPNLVCSRTHKWCKYVF (modifications not checked) [[Ala6]GpTx-1(1-34)] reads 17.4 µM.
Molecule DCLGFPRKCIPDNDKCCRPNLVCSRTHKWCKYVF (modifications not checked) [[Pro6]GpTx-1(1-34)] came in with an IWQ Use Nav1.5 (µM); IC50 of peak inward current, IonWorks Quattro of 10 µM and a Nav1.5 Use IC50 (PatchXpress electrophysiology) of 10 µM.
DCLGFMRKCIPDNDQCCRPNLVCSRTHKWCKYVF (modifications not checked) [[Gln15]GpTx-1(1-34)] came in with an IWQ Use Nav1.5 (µM): IC50 of peak inward current, IonWorks Quattro of 7.6 µM.
In the case of DCLGFQRKCIPDNDKCCRPNLVCSRTHKWCKYVF (modifications not checked) [[Gln6]GpTx-1(1-34)], the IWQ Use Nav1.5 (µM); IC50 of peak inward current, IonWorks Quattro was determined as 7.57 µM.
In turn, DCLGFMRACIPDNDKCCRPNLVCSRTHKWCKYVF (modifications not checked) [[Ala8]GpTx-1(1-34)] yielded an IWQ Use Nav1.5 (µM) (IC50, IonWorks Quattro population patch clamp) of 16.8 µM.
The molecule DCLGFMRKCIPDNDACCRPNLVCSRTHKWCKYVF (modifications not checked) [[Ala15]GpTx-1(1-34)] displayed an IWQ Use Nav1.5 (µM): IC50 of peak inward current, IonWorks Quattro of 9.64 µM.
On the same count and under the same terms, under DCLGFMRKCIPDKDKCCRPNLVCSRTHKWCKYVF (modifications not checked) [[Lys13]GpTx-1(1-34)] stands 9.72 µM.
In the case of DCLGFIRKCIPDNDKCCRPNLVCSRTHKWCKYVF (modifications not checked) [[Ile6]GpTx-1(1-34)], the IWQ Use Nav1.5 (µM); IC50 of peak inward current, IonWorks Quattro was determined as 8.63 µM.
On to DCLGFMRKCIPDWDKCCRPNLVCSRTHKWCKYVF (modifications not checked) [[Trp13]GpTx-1(1-34)], for which the IWQ Use Nav1.5 (µM): IC50 of peak inward current, IonWorks Quattro was determined as 17.3 µM.
DCLGFMRKCIPDNDKCCRPNLVCSRKTKWCKYVF (modifications not checked) [[Lys26; Thr27]GpTx-1(1-34)] had a Nav1.5 Use IC50 (PatchXpress whole cell patch clamp) of 1390 nM.

Another test concerns the target human voltage-gated sodium channel Nav1.7 (human), Q15858. Nature of the test: cell-based or functional assay.
With DCLGFYRKCIPDNDKCCRPNLVCSRTHKWCKYVF (modifications not checked) [[Tyr6]GpTx-1(1-34)], the IWQ Use Nav1.7 (µM); IC50 of peak inward current, IonWorks Quattro was found to be 0.97 µM and the Nav1.7 Use IC50 (PatchXpress electrophysiology) is 0.069 µM.
As to DCLGFMRECIPDNDKCCRPNLVCSRTHKWCKYVF (modifications not checked) [[Glu8]GpTx-1(1-34)], the IWQ Use Nav1.7 (µM) (IC50, IonWorks Quattro population patch clamp) came to 1.7 µM.
The molecule DCLGFRRKCIPDNDKCCRPNLVCSRTHKWCKYVF (modifications not checked) [[Arg6]GpTx-1(1-34)] had an IWQ Use Nav1.7 (µM); IC50 of peak inward current, IonWorks Quattro of 6.98 µM.
Molecule DCLGFMRKCIPDADKCCRPNLVCSRTHKWCKYVF (modifications not checked) [[Ala13]GpTx-1(1-34)] had an IWQ Use Nav1.7 (µM): IC50 of peak inward current, IonWorks Quattro of 0.17 µM.
Take DCLGFHRKCIPDNDKCCRPNLVCSRTHKWCKYVF (modifications not checked) [[His6]GpTx-1(1-34)]: the IWQ Use Nav1.7 (µM); IC50 of peak inward current, IonWorks Quattro was found to be 4.72 µM.
On the same count and under the same terms, under DCLGFARKCIPDNDKCCRPNLVCSRTHKWCKYVF (modifications not checked) [[Ala6]GpTx-1(1-34)] stands 0.51 µM.
As to DCLGFPRKCIPDNDKCCRPNLVCSRTHKWCKYVF (modifications not checked) [[Pro6]GpTx-1(1-34)], the IWQ Use Nav1.7 (µM); IC50 of peak inward current, IonWorks Quattro is 0.79 µM and the Nav1.7 Use IC50 (PatchXpress electrophysiology) came to 0.042 µM.
With DCLGFMRKCIPDNDQCCRPNLVCSRTHKWCKYVF (modifications not checked) [[Gln15]GpTx-1(1-34)], the IWQ Use Nav1.7 (µM): IC50 of peak inward current, IonWorks Quattro came out at 0.13 µM.
Consider DCLGFQRKCIPDNDKCCRPNLVCSRTHKWCKYVF (modifications not checked) [[Gln6]GpTx-1(1-34)], for which the IWQ Use Nav1.7 (µM); IC50 of peak inward current, IonWorks Quattro was determined as 8.62 µM.
In turn, DCLGFMRACIPDNDKCCRPNLVCSRTHKWCKYVF (modifications not checked) [[Ala8]GpTx-1(1-34)] displayed an IWQ Use Nav1.7 (µM) (IC50, IonWorks Quattro population patch clamp) of 0.49 µM.
On to DCLGFMRKCIPDNDACCRPNLVCSRTHKWCKYVF (modifications not checked) [[Ala15]GpTx-1(1-34)], for which the IWQ Use Nav1.7 (µM): IC50 of peak inward current, IonWorks Quattro was determined as 0.22 µM.
The same measure, in the same setting: under DCLGFMRKCIPDKDKCCRPNLVCSRTHKWCKYVF (modifications not checked) [[Lys13]GpTx-1(1-34)] stands 0.21 µM.
DCLGFIRKCIPDNDKCCRPNLVCSRTHKWCKYVF (modifications not checked) [[Ile6]GpTx-1(1-34)] showed an IWQ Use Nav1.7 (µM); IC50 of peak inward current, IonWorks Quattro of 0.07 µM.
The molecule DCLGFMRKCIPDWDKCCRPNLVCSRTHKWCKYVF (modifications not checked) [[Trp13]GpTx-1(1-34)] had an IWQ Use Nav1.7 (µM): IC50 of peak inward current, IonWorks Quattro of 0.09 µM.
With DCLGFMRKCIPDNDKCCRPNLVCSRKTKWCKYVF (modifications not checked) [[Lys26; Thr27]GpTx-1(1-34)], the Nav1.7 Use IC50 (PatchXpress whole cell patch clamp) worked out at 4 nM.

A further test has as its target human voltage-gated sodium channel Nav1.3 (human), Q9NY46. Put plainly: cell-based or functional assay.
In turn, DCLGFYRKCIPDNDKCCRPNLVCSRTHKWCKYVF (modifications not checked) [[Tyr6]GpTx-1(1-34)] yielded an IWQ Use Nav1.3 (µM); IC50 of peak inward current, IonWorks Quattro of 0.52 µM.
On to DCLGFMRECIPDNDKCCRPNLVCSRTHKWCKYVF (modifications not checked) [[Glu8]GpTx-1(1-34)], for which the IWQ Use Nav1.3 (µM) (IC50, IonWorks Quattro population patch clamp) is 1.36 µM.
Consider DCLGFRRKCIPDNDKCCRPNLVCSRTHKWCKYVF (modifications not checked) [[Arg6]GpTx-1(1-34)], for which the IWQ Use Nav1.3 (µM); IC50 of peak inward current, IonWorks Quattro is 5.9 µM.
In the case of DCLGFMRKCIPDADKCCRPNLVCSRTHKWCKYVF (modifications not checked) [[Ala13]GpTx-1(1-34)], the IWQ Use Nav1.3 (µM): IC50 of peak inward current, IonWorks Quattro amounted to 0.16 µM.
For the molecule DCLGFHRKCIPDNDKCCRPNLVCSRTHKWCKYVF (modifications not checked) [[His6]GpTx-1(1-34)], the IWQ Use Nav1.3 (µM); IC50 of peak inward current, IonWorks Quattro is 7.77 µM.
DCLGFARKCIPDNDKCCRPNLVCSRTHKWCKYVF (modifications not checked) [[Ala6]GpTx-1(1-34)] had an IWQ Use Nav1.3 (µM); IC50 of peak inward current, IonWorks Quattro of 0.21 µM.
The same measure, in the same setting: the result for DCLGFPRKCIPDNDKCCRPNLVCSRTHKWCKYVF (modifications not checked) [[Pro6]GpTx-1(1-34)] reads 0.76 µM.
With DCLGFMRKCIPDNDQCCRPNLVCSRTHKWCKYVF (modifications not checked) [[Gln15]GpTx-1(1-34)], the IWQ Use Nav1.3 (µM): IC50 of peak inward current, IonWorks Quattro amounted to 0.12 µM.
As for DCLGFQRKCIPDNDKCCRPNLVCSRTHKWCKYVF (modifications not checked) [[Gln6]GpTx-1(1-34)], the IWQ Use Nav1.3 (µM); IC50 of peak inward current, IonWorks Quattro turned out to be 5.96 µM.
In turn, DCLGFMRACIPDNDKCCRPNLVCSRTHKWCKYVF (modifications not checked) [[Ala8]GpTx-1(1-34)] returned an IWQ Use Nav1.3 (µM) (IC50, IonWorks Quattro population patch clamp) of 0.41 µM.
For the molecule DCLGFMRKCIPDNDACCRPNLVCSRTHKWCKYVF (modifications not checked) [[Ala15]GpTx-1(1-34)], the IWQ Use Nav1.3 (µM): IC50 of peak inward current, IonWorks Quattro came out at 0.19 µM.
Take DCLGFMRKCIPDKDKCCRPNLVCSRTHKWCKYVF (modifications not checked) [[Lys13]GpTx-1(1-34)]: the IWQ Use Nav1.3 (µM): IC50 of peak inward current, IonWorks Quattro worked out at 0.13 µM.
Regarding DCLGFIRKCIPDNDKCCRPNLVCSRTHKWCKYVF (modifications not checked) [[Ile6]GpTx-1(1-34)], the IWQ Use Nav1.3 (µM); IC50 of peak inward current, IonWorks Quattro came out at 0.06 µM.
As to DCLGFMRKCIPDWDKCCRPNLVCSRTHKWCKYVF (modifications not checked) [[Trp13]GpTx-1(1-34)], the IWQ Use Nav1.3 (µM): IC50 of peak inward current, IonWorks Quattro turned out to be 0.05 µM.
Consider DCLGFMRKCIPDNDKCCRPNLVCSRKTKWCKYVF (modifications not checked) [[Lys26; Thr27]GpTx-1(1-34)], for which the Nav1.3 Use IC50 (PatchXpress whole cell patch clamp) was 16 nM.
